The assay concerns the target Human immunodeficiency virus type 1 reverse transcriptase (Human immunodeficiency virus 1) (UniProt Q72547). Kind of assay: Ratio of nevirapine IC50 to compound IC50 for HIV1 reverse transcriptase.

With `Cc1cc(C)cc(Cc2c(I)c(=O)[nH]c(=O)n2COCc2ccccc2)c1`, the Ratio IC50 was determined as 1370.
